Anti-infective test results gathered from many reports (values: NIAID ChemDB through PubChem).

Shared fields: cytotoxicity tests; cells: BCBL-1; measure: CC50

Lines come from different laboratories, so protocols vary. Blank or dashed fields: not listed here. CCn: concentration that lowers growth or viability of the cells by n%.

structure | method | result
Nc1ccn(C[C@@H](CO)OCP(=O)(O)O)c(=O)n1 | - | >159 µM
O=c1[nH]c(=O)n([C@H]2C[C@H](O)[C@@H](CO)O2)cc1/C=C/Br | cell count | 138 µM
CCCCCCCC/C=C\CCCCCCCOCCCOP(=O)(O)CO[C@H](CO)Cn1ccc(N)nc1=O | - | >1.5 µM
O=C(NCc1ccc(Cl)cc1)c1cn2c(CCO)cc3cc(CN4CCOCC4)cc(c1=O)c32 | MTS | >20.8 µM
CCCCCCCCCCCCCCCCCOC[C@H](COP1(=O)CO[C@@H](Cn2ccc(N)nc2=O)CO1)OCc1ccccc1 | - | >1 µM
Nc1nc(NC2CC2)c2ncn(/C=C3/C[C@@H]3CO)c2n1 | - | 110 µM
O=c1[nH]c(=O)n([C@H]2C[C@H](O)[C@@H](CO)O2)cc1/C=C/Cl | cell count | >70 µM
CCCCCCCC/C=C\CCCCCCCOCCOP1(=O)CO[C@@H](Cn2ccc(N)nc2=O)CO1 | - | >0.9 µM
CCCSc1nc(N)nc2c1ncn2/C=C1/C[C@@H]1CO | - | 148 µM
NC1=NC2C(C=CN2CC(CO)CCO)C(=O)N1 | cell count | >200 µM
CC(C)Nc1nc2cc(Cl)c(Cl)cc2n1[C@H]1O[C@@H](CO)[C@H](O)[C@@H]1O | - | >80 µM
O=C(NCc1ccc(Cl)cc1)c1cn2c3c(cc(CN4CCOCC4)cc3c1=O)OC(c1cccnc1)C2 | MTS | >18.8 µM
CCCCCOc1nc(N)nc2c1ncn2/C=C1/C[C@@H]1CO | - | 109 µM
O=c1[nH]c(=O)n([C@H]2C[C@H](O)[C@@H](CO)O2)cc1I | cell count | 4 µM
CCCCCCCCCCCCOCCCOP(=O)(O)CO[C@H](CO)Cn1ccc(N)nc1=O | - | >1 µM
Nc1ncnc2c1ncn2/C=C1/CC1(CO)CO | - | 124 µM

Again, the opening 2 rows:

structure | method | result
Nc1ccn(C[C@@H](CO)OCP(=O)(O)O)c(=O)n1 | - | >159 µM
O=c1[nH]c(=O)n([C@H]2C[C@H](O)[C@@H](CO)O2)cc1/C=C/Br | cell count | 138 µM